Results of unrelated studies side by side (data: NIAID ChemDB).

Common to all: whole-cell or culture tests; organism: Mycobacterium tuberculosis

MIC bound: limit read from a one-dose screen. MIC50, MIC90 and the like: level of inhibition, or share of isolates inhibited. Rows are shuffled and stem from different studies. Percent inhibition refers to the dose given; in toxicity tests it is the harm to the cells. Blank or dashed fields: not listed here. ECn is the concentration giving n% inhibition of infection, replication or growth.

smiles	measure	read by	dose	conditions	cells	strain	result
O=C(NNS(=O)(=O)c1ccccc1)c1ccc([N+](=O)[O-])cc1	MIC	BACTEC				H37Rv	≥12.5 µg/mL
CCOc1ccc(-n2c(-c3ccc(F)cc3)cs/c2=N\NC(=O)COc2cnccn2)cc1	MIC					H37Rv	22 µg/mL
CC(C)C[C@@H](CO)NCCNC[C@]1(C)CCC[C@]2(C)c3ccc(C(C)C)cc3CC[C@@H]12	MIC						25 µM
CC(NCCNCc1ccc(C(F)(F)F)cc1)c1cccc2ccccc12	MIC						12.5 µM
O=C(N/N=C/c1cccc(F)c1)c1ccncc1	MIC					H37Rv (kanamycin-resistant)	≤2 µg/mL
NC(=O)N(CCCO)/N=C/c1ccc([N+](=O)[O-])o1	MIC bound	BACTEC				H37Rv	>12.5 µg/mL
CC[C@H]1OC(=O)[C@H](C)[C@@H](O[C@H]2C[C@@](C)(OC)[C@@H](O)[C@H](C)O2)[C@H](C)[C@@H](O[C@@H]2O[C@H](C)C[C@H](N(C)C)[C@H]2O)[C@](C)(O)C[C@@H](C)C(=O)[C@H](C)[C@@H](O)[C@]1(C)O	MBC90					Drug-resistant	>8 µg/mL
CCCCC(CC)CN1CN(CC(CC)CCCC)CC(C)(NCCNC/C=C(\C)CCC=C(C)C)C1	MIC						50 µM
NC1CCN(c2c(F)cc3c(=O)c(C(=O)O)cn(C4CC4)c3c2Cl)C1	MIC90					Drug-resistant	0.5 µg/mL
Cc1ccc(-c2cs/c(=N\NC(=O)COc3cnccn3)n2-c2ccc(Cl)cc2Cl)cc1	MIC					H37Rv	21 µg/mL
O=C1CC2C(O)OC(O)C(C1)N2C(=O)OCC(Cl)(Cl)Cl	MIC bound	BACTEC				H37Rv	>12.5 µg/mL
CC1CN(c2cc3c(cc2F)c(=O)c(C(=O)O)cn3-c2ccc(F)cc2F)CCN1	MIC90					DRUG-SUS	2 µg/mL
CCOC(=O)Nc1cc(NC(C)[C@H](C)c2ccccc2)c(N)c(N)n1	EC50					H37Rv	<12.5 µg/mL
c1ccc(C(CCNCCN2CCCC3CCCCC32)c2ccccc2)cc1	MIC						12.5 µM
COc1cccc(NC(=O)OCC[NH+]2CCCC2)c1	MIC					My 331/88	1000 µM
CC1=NN(c2ccc(S(=O)(=O)O)cc2)C(=O)C1N=Nc1ccc(C)c(S(=O)(=O)Nc2ccccc2)c1	MIC	BACTEC				H37Rv	≥12.5 µg/mL
NNC(=O)c1ccncc1	MIC					Strain 370	0.06 µg/mL
C[C@@H]1CN(c2c(F)c(N)c3c(=O)c(C(=O)O)cn(C4CC4)c3c2F)C[C@H](C)N1	MIC50					MDR	0.5 µg/mL
Clc1nc(Sc2ccc3ccccc3n2)c2[nH]cnc2n1.O	MIC					H37Ra	>12.8 µg/mL
c1ccc(CCCCNCCNCCc2ccccc2)cc1	MIC						50 µM
Cc1ccccc1CSc1ccccn1	inhibition		6.25 µg/mL			H37Rv	0%
CO[C@H]1/C=C/O[C@@]2(C)Oc3c(C)c(O)c4c(O)c(c(/C=N/N5CCN(C)CC5)c(O)c4c3C2=O)NC(=O)/C(C)=C\C=C\[C@H](C)[C@H](O)[C@@H](C)[C@@H](O)[C@@H](C)[C@H](OC(C)=O)[C@@H]1C	MIC					PR1282	≤0.02 µg/mL
CC1CCCC(NCCNC[C@@H]2CC[C@H]3C[C@@H]2C3(C)C)C1C	MIC						6.25 µM
Cc1ccc(S(=O)(=O)[O-])cc1.Cc1ccc(S(=O)(=O)[O-])cc1.Cn1c(-c2ccc(/C=N/N3CCN(/N=C/c4ccc(-c5c[n+]6ccsc6n5C)cc4)CC3)cc2)c[n+]2ccsc12	inhibition	BACTEC	12.5 µg/mL			H37Rv	38.34%
CCCCCCSc1nc(Cl)nc2nc[nH]c12	MIC					H37Ra	>12.8 µg/mL
CCCOc1ccccc1NC(=O)OCC[NH+]1CCCC1	MIC					My 331/88	1000 µM
COc1ccc(CSc2ccncc2)cc1	inhibition		6.25 µg/mL			H37Rv	8%
CC(CNCC(c1ccccc1)c1ccccc1)N[C@H]1C[C@H]2C[C@@H]([C@@H]1C)C2(C)C	MIC						50 µM
COc1ccc2c(c1)[n+](=O)c(C(=O)C/C(=N\OCCCc1ccccc1)C(=O)NC13CC4CC(CC(C4)C1)C3)c(C)n2[O-]	inhibition	BACTEC	12.5 µg/mL			H37Rv	47%
CCCCCOc1ccc(NC(=O)OCCN2CCCCC2)cc1	MIC					My 331/88	62.5 µM
NC1=NNC(=O)C1	inhibition	BACTEC	12.5 µg/mL			H37Rv	-11%
O=C(NNCc1ccccc1F)c1ccncc1	MIC					H37Rv	0.2 µg/mL
CCOC(=O)Nc1cc(C[C@@H](C)[C@H](O)c2ccccc2)c(N)c(N)n1	EC50					H37Rv	>12.5 µg/mL
CC1(C)OC2OC(C(O)CO)C(OC(=S)SSC(=S)OC3C(C(O)CO)OC4OC(C)(C)OC43)C2O1	MIC	BACTEC				H37Rv	≥12.8 µg/mL
CCOC(=O)Nc1cc2c(c(N)n1)N=C(Cc1ccccc1)C(C)N2	EC50					H37Rv	<12.5 µg/mL
O=C(NNCc1cccc(C(F)(F)F)c1)c1ccncc1	MIC					Ethambutol-resistant	0.39 µg/mL
CCCCC(CC)CN1CN(CC(CC)CCCC)CC(C)(NCCNC2CCC2)C1	MIC						12.5 µM
CCOc1ccc(NC(=S)NNC(=O)COc2cnccn2)cc1	MIC					H37Rv	92 µg/mL
CC1COc2c(N3CCN(C)CC3)c(F)cc3c(=O)c(C(=O)O)cn1c23	MIC	agar				SMI 21	0.5 µg/mL
CC(C)CNC(=S)NNC(=O)COc1cnccn1	MIC					H37Rv	51 µg/mL
CCOC(=O)Nc1cc(N[C@@H](C)[C@H](O)c2ccccc2)c(N)c(N)n1	EC50				VERO	H37Rv	<12.5 µg/mL
C/C([O-])=N/c1on[n+](-c2ccccc2)c1-c1ccccc1	inhibition	BACTEC	12.5 µg/mL			H37Rv	4%
CO[C@H]1/C=C/O[C@@]2(C)Oc3c(C)c(O)c4c(O)c(c5c(c4c3C2=O)NC2(CCN(CC(C)C)CC2)N=5)=NC(=O)/C(C)=C\C=C\[C@H](C)[C@H](O)[C@@H](C)[C@@H](O)[C@@H](C)[C@H](OC(C)=O)[C@@H]1C	MIC					CSU20	≤0.125 µg/mL
NC(=O)c1nc[nH]c1F	MIC bound	resazurin				H37Rv	>6.25 µg/mL
CN[C@@H]1[C@H](O[C@H]2[C@H](O[C@H]3[C@H](O)[C@@H](O)[C@H](N=C(N)N)[C@@H](O)[C@@H]3N=C(N)N)O[C@@H](C)[C@]2(O)C=O)O[C@@H](CO)[C@H](O)[C@H]1O	MIC					TN810 (001/19)	>2 µg/mL
CCCCCOc1cccc(NC(=O)OCCN(C)C)c1	MIC					My 331/88	32 µM
O=S(=O)(O)c1cc2cc(S(=O)(=O)O)c3nnc4cc(S(=O)(=O)O)cc5cc(S(=O)(=O)O)c(nnc6cc(S(=O)(=O)O)cc7cc(S(=O)(=O)O)c(nnc(c1)c2c3O)c(O)c76)c(O)c54	MIC bound	BACTEC				H37Rv	>12.5 µg/mL
NC(=O)c1cnccn1	MIC					Isolate 10347 monodrug-resistant	>300 µg/mL
CC(CNCCc1ccccc1F)NCC12CC3CC(CC(C3)C1)C2	MIC						25 µM
CCCCCCCCCCCNCCNCC(C)c1ccccc1	MIC						6.25 µM
COC(=O)C1(C(=O)OC)OC(c2ccc(OC)cc2)C2C(=O)N(C)C(=O)C21	MIC bound	BACTEC				H37Rv	>12.5 µg/mL
CCCCOc1cccc(NC(=O)OCCN2CCCCCC2)c1	MIC					My 331/88	32 µM
Cc1ccccc1Sc1ncnc2nc[nH]c12	inhibition		6.25 µg/mL			H37Rv	36%
COc1cc(=O)oc(/C=C/C=C/C=C/C(C)=C/C2(C)OC(C)C(C)(O)C2O)c1C	MIC	BACTEC				H37Rv	≥12.8 µg/mL
CCCCCCCCSc1nc(Cl)nc2nc[nH]c12	MIC					H37Ra	>12.8 µg/mL
COc1ccccc1CCNCCN(Cc1ccccc1)Cc1ccccc1	MIC						50 µM
CC1CN(c2c(F)cc3c(=O)c(C(=O)O)cn(C4CC4)c3c2F)CCN1	MIC					CSU12	≤0.125 µg/mL
CCCCN(CCCC)CCNc1ccc(C)c2sc3cc(Cl)ccc3c(=O)c12	inhibition	BACTEC	12.5 µg/mL			H37Rv	99%
CCCCN(CCNCCc1ccccc1OC)Cc1ccccc1	MIC						50 µM
COC(=O)/C(=C1\OC(=O)C(c2ccccc2)=C1O)c1ccccc1	MIC	BACTEC				H37Rv	128 µg/mL
Cc1ccc(CSc2nc(=O)[nH]c3nc[nH]c23)cc1	MIC90					H37Rv	>6.25 µg/mL
CO[C@H]1/C=C/O[C@@]2(C)Oc3c(C)c(O)c4c(O)c(c5c(c4c3C2=O)NC2(CCN(CC(C)C)CC2)N=5)=NC(=O)/C(C)=C\C=C\[C@H](C)[C@H](O)[C@@H](C)[C@@H](O)[C@@H](C)[C@H](OC(C)=O)[C@@H]1C	MIC					2225 (rifampicin-resistant)	>2 µg/mL
C[C@@H]1CN(c2c(F)c(N)c3c(=O)c(C(=O)O)cn(C4CC4)c3c2F)C[C@H](C)N1	MIC					CSU25	≤0.125 µg/mL
C[C@H]1COc2c(N3CCN(C)CC3)c(F)cc3c(=O)c(C(=O)O)cn1c23	MBC					ATCC 35820	0.5 µg/mL
C/C(=N\NC(=O)c1ccncc1)c1ccccc1	MIC					Erdman	0.1 µg/mL
CC1(C)[C@H]2CC[C@@H](CNCCN3CCc4c([nH]c5ccccc45)C3)[C@@H]1C2	MIC						50 µM
C[C@H]1COc2c(N3CCN(C)CC3)c(F)cc3c(=O)c(C(=O)O)cn1c23	MIC					CSU20	≤0.125 µg/mL
c1ccc2c(c1)ccc1c2nnc2nnnn21	MIC bound	resazurin				H37Rv	>6.25 µg/mL
CO[C@H]1/C=C/O[C@@]2(C)Oc3c(C)c(O)c4c(=O)c(c5oc6cc(N7CCN(CC(C)C)CC7)cc(=O)c6nc5c4c3=C2O)NC(=O)/C(C)=C\C=C\[C@H](C)[C@H](O)[C@@H](C)[C@@H](O)[C@@H](C)[C@H](OC(C)=O)[C@@H]1C	MIC					TN798	16 µg/mL
O=C(N/N=C/c1cccc(C(F)(F)F)c1)c1ccncc1	MIC					Rifampicin-resistant	0.1 µg/mL
CCCCCCOc1ccc(NC(=O)OCCN2CCCCC2)cc1	MIC					My 331/88	16 µM
CCCCC(CC)CN1CN(CC(CC)CCCC)CC(C)(NCCNCCc2cccc(F)c2)C1	MIC						12.5 µM
COc1ccc(C(=O)CC(c2ccc(OC)c(OC)c2)c2c(O)c3ccccc3oc2=O)cc1OC	inhibition	BACTEC	12.5 µg/mL			H37Rv	0%
COc1ccc(OC)c(Sc2ccncc2)c1	MIC90					H37Rv	>6.25 µg/mL
O=C(NNCc1ccccc1)c1ccncc1	EC90	colony count		inside macrophages	Macrophages	Erdman	0.005 µg/mL
CCCCC(CC)CN1CN(CC(CC)CCCC)CC(C)(NCCNCc2ccccc2Sc2ccccc2CO)C1	MIC						25 µM
CCCCC(CC)CN1CN(CC(CC)CCCC)CC(C)(NCCN[C@@H](CO)[C@@H](O)c2ccc(SC)cc2)C1	MIC						25 µM
C[C@H]1COc2c(N3CCN(C)CC3)c(F)cc3c(=O)c(C(=O)O)cn1c23	MIC					Strain 361	0.5 µg/mL
COC(=O)C1(NC(=O)C(C)NC(=O)C(CCCCN)NC(=O)C(CC(C)C)NC(C)=O)CCCC1	MIC bound	BACTEC				H37Rv	>12.5 µg/mL
CCCCCCCOc1cccc(NC(=O)OCCN2CCCCC2)c1	MIC					My 331/88	8 µM
COc1ccc(NC(=O)CC(=O)N2N=C(N3c4ccccc4Sc4ccccc43)CC2c2ccccc2)cc1	MIC bound	BACTEC				H37Rv	>12.5 µg/mL
CC(C)=CCC/C(C)=C/CNCCNCc1cccc2ccccc12	MIC						50 µM
O=C(/N=C1\N=Nc2c(O)c(C3(c4nc5n(c4O)/C(=N/C(=O)Nc4ccc(Cl)cc4)N=N5)Cc4ccccc4C3=O)nn21)Nc1ccc(Cl)cc1	MIC bound	BACTEC				H37Rv	≤128 µg/mL
CCCCCCOc1cccc(NC(=O)OCCN2CCCCCC2)c1	MIC					My 331/88	8 µM

For reference, 5 entries again:

smiles,measure,read by,dose,conditions,cells,strain,result
CCCCC(CC)CN1CN(CC(CC)CCCC)CC(C)(NCCNC/C=C(\C)CCC=C(C)C)C1,MIC,,,,,,50 µM
C/C([O-])=N/c1on[n+](-c2ccccc2)c1-c1ccccc1,inhibition,BACTEC,12.5 µg/mL,,,H37Rv,4%
COc1ccc(C(=O)CC(c2ccc(OC)c(OC)c2)c2c(O)c3ccccc3oc2=O)cc1OC,inhibition,BACTEC,12.5 µg/mL,,,H37Rv,0%
COc1ccc2c(c1)[n+](=O)c(C(=O)C/C(=N\OCCCc1ccccc1)C(=O)NC13CC4CC(CC(C4)C1)C3)c(C)n2[O-],inhibition,BACTEC,12.5 µg/mL,,,H37Rv,47%
O=C(N/N=C/c1cccc(C(F)(F)F)c1)c1ccncc1,MIC,,,,,Rifampicin-resistant,0.1 µg/mL